Compound potency records, mixed from different reports. Data source: NIAID ChemDB in PubChem.

All rows: tests in culture

Lines come from different laboratories, so protocols vary.

structure | strain | method | agent | measure | tested at | cell line | result
Nc1ncc2ncn(CCOCP(=O)(O)O)c2n1 | DAVIS | cytopathic effect | Cytomegalovirus | EC50 |  | HEL | 400 µg/mL
C[C@H](Cn1cnc2c(N)nc(N)nc21)OCP(=O)(O)O |  | hybridisation | Epstein-Barr virus | EC50 |  | P3HR-1 | >50 µg/mL
Nc1ncnc2c1ncn2C[C@@H](CO)OCP(=O)(O)O | PFA-resistant/B | plaque count | Varicella zoster virus | EC50 |  | HEL | 0.048 µg/mL
COc1ccc([Se][Se]c2ccc(OC)cc2)cc1 |  | broth dilution | Candida dubliniensis | MFC |  |  | 16–64 µg/mL
COc1ccc(-c2oc3c4c(cc(O)c3c(=O)c2O)OC(C)(C)CC4)cc1 | MAC251 | PCR | SIV | EC50 |  | CEMx174 | 1.159 µM
OC[C@H]1O[C@@H](n2cnc3cc(Cl)c(Cl)cc32)[C@@H](O)[C@@H]1O | TYPE 1 | cytopathic effect | Reovirus | EC50 |  | HeLa | >200 µg/mL
NC(=O)c1c[se]c([C@@H]2O[C@H](CO)[C@@H](O)[C@H]2O)n1 | COAN3739 | plaque count | Pichinde virus | EC50 |  | VERO 76 | 4 µg/mL
Nc1nc(N)c2ncn(C[C@@H](CF)OCP(=O)(O)O)c2n1 |  | hybridisation | Epstein-Barr virus | EC50 |  | P3HR-1 | 50 µg/mL
Cc1cn([C@@H]2C[C@@H](O)[C@H](CO)O2)c(=O)[nH]c1=O |  |  | Measles virus | EC50 |  | CV-1 | >100 µM
O[C@@H]1[C@@H](OCc2ccccc2)[C@@H](COCc2ccccc2)O[C@H]1n1cnc2cc(Cl)c(Cl)cc21 |  | cytopathic effect | Sindbis virus | EC50 |  | HeLa | >10 µg/mL
Nc1ncnc2c1ncn2C[C@@H](CO)OCP(=O)(O)O |  |  | Epstein-Barr virus | inhibition | 0.1 µM | P3HR-1 | 7%
c1ccc([Se][Se]c2ccccc2)cc1 | ATCC 10231 | broth dilution | Candida glabrata | MIC |  |  | >64 µg/mL
N=C(N)c1ncn([C@@H]2O[C@H](CO)[C@@H](O)[C@H]2O)n1 | A/NWS/33 | virus yield | Influenza A virus (H1N1) | inhibition | 22 µg/mL | MDCK | 90%
NC(=O)c1ncn([C@@H]2O[C@H](CO)[C@@H](O)[C@H]2O)n1 | ATCC VR-93 (TYPE 3) | plaque count | Parainfluenza virus | EC50 |  | HeLa | 18 µg/mL
O=C(O)P(=O)(O)O | AD169 | cytopathic effect | Cytomegalovirus | EC50 |  | HEL | 20 µg/mL
Nc1nc2c(ncn2COC(CO)CO)c(=O)[nH]1 | PMEDAP-resistant | plaque count | Varicella zoster virus | EC50 |  | HEL | 0.043 µg/mL
O=c1[nH]cnc2c1ncn2C[C@@H](CO)OCP(=O)(O)O | AD169 | plaque count | Cytomegalovirus | EC50 |  | HEL | 100 µg/mL
C[C@@H](Cn1cnc2c(NCCN(C)C)ncnc21)OCP(=O)(O)O |  | hybridisation | Epstein-Barr virus | EC50 |  | P3HR-1 | 0.5 µg/mL
Nc1ccn(C[C@@H](CO)OCP(=O)(O)O)c(=O)n1 | BVDU-resistant | plaque count | Varicella zoster virus | EC50 |  | HEL | 0.054 µg/mL
COc1ccc(-c2cc(=O)c3c(OC)cc(OC)c([C@H]4C(=O)c5c(OC)cc(OC)cc5O[C@@H]4c4ccc(OC)cc4)c3o2)cc1 | C243 (TYPE 3) | neutral red | Parainfluenza virus | EC50 |  | MA-104 | >32 µg/mL
CC(C)(C)C1CCC(CN2C3=NC[C@H](C4CCCCC4)N3C[C@@H]2CC2CCCCC2)CC1 | ATCC 32045 |  | Cryptococcus neoformans | EC50 |  |  | 4.1 µg/mL
CC1(C)O[C@@H]1COc1c2occc2cc2ccc(=O)oc12 | CQ-sensitive |  | Plasmodium falciparum | EC90 |  | RBC | 31 µg/mL
CC(=O)NC[C@H]1CN(c2ccc(N3CCOCC3)c(F)c2)C(=O)O1 | Penicillin-susceptible |  | Streptococcus pneumoniae | MIC50 |  |  | 0.5 µg/mL
COC(=O)[C@]1(O)C[C@@H]2O[C@@]1(C)n1c3ccccc3c3c4c(c5c6ccccc6n2c5c31)C(=O)NC4 |  |  | Epstein-Barr virus | EC50 |  | Akata | 0.02 µM
CON=C1C[C@H](n2cc(C)c(=O)[nH]c2=O)O[C@@H]1CO |  | hybridisation | Epstein-Barr virus | EC50 |  | P3HR-1 | >50 µg/mL
C1CCC(C[C@H]2CN=C3N(CCC45CC6CC(CC(C6)C4)C5)[C@@H](CC4CCCCC4)CN32)CC1 | ATCC 32045 |  | Cryptococcus neoformans | EC50 |  |  | 5.7 µg/mL
O[C@@H]1CC(n2cnc3cc(Cl)c(Cl)cc32)OC[C@@H]1O |  | cytopathic effect | Sindbis virus | EC50 |  | HeLa | >200 µg/mL
CN(C)CCNc1ncnc2c1ncn2CCOCP(=O)(O)O |  | hybridisation | Epstein-Barr virus | EC50 |  | P3HR-1 | 12 µg/mL
O=C1NCc2c1c1c3ccccc3[nH]c1c1[nH]c3ccccc3c21 |  |  | Epstein-Barr virus | EC50 |  | Akata | 1.11 µM
CCO/N=C/c1ccc(OCCC2CCN(c3ccc(C)nn3)CC2)cc1 | SF-1662 (ICAM-1 receptor group 92) | neutral red | Rhinovirus | EC50 |  | KB | 0.001 µM
C1CCC(C[C@H]2CN=C3N2C[C@@H](C2CCCCC2)N3CCC23CC4CC(CC(C4)C2)C3)CC1 | ATCC 32045 |  | Cryptococcus neoformans | EC50 |  |  | 3.6 µg/mL
Clc1cc2nc[nH]c2cc1Cl | TYPE 1 | cytopathic effect | Reovirus | EC50 |  | HeLa | >10 µg/mL
C#CC[C@@H](C(=O)N[C@H](/C=C/C(=O)OCC)C[C@@H]1CCNC1=O)n1cccc(NC(=O)c2cc(C)on2)c1=O | Serotype 36 | cytopathic effect / XTT | Rhinovirus | EC50 |  | H1-HELA | 0.011 µM
Nc1nc2c(ncn2CCOCP(=O)(O)O)c(=O)[nH]1 | DAVIS | plaque count | Cytomegalovirus | EC50 |  | HEL | 0.4 µg/mL
CO/N=C1\CN(c2nc3c(cc2F)c(=O)c(C(=O)O)cn3C2CC2)CC1CN | 622286 |  | Streptococcus pneumoniae | MIC |  |  | 0.125 µg/mL
O=c1[nH]c(=O)n([C@H]2C[C@H](O)[C@@H](CO)O2)cc1/C=C/Br |  |  | Epstein-Barr virus | inhibition | 100 µM | P3HR-1 | 5%
CC(N)C12CC3CC(CC(C3)C1)C2 | Influenza A/Sydney/05/97 (H3N2) | neutral red | Influenza A virus | EC50 |  | MDCK | 0.09 µM
CCN1C2=NC[C@H](C3CCCCC3)N2C[C@@H]1Cc1ccccc1 | ATCC 32045 |  | Cryptococcus neoformans | EC50 |  |  | 72.2 µg/mL
OCCOC(CO)n1cnc2cc(Cl)c(Cl)cc21 | TYPE 1 | cytopathic effect | Reovirus | EC50 |  | HeLa | >200 µg/mL
Nc1ccn([C@@H]2C[C@@H](O)[C@H](CO)O2)c(=O)n1 |  |  | Duck hepatitis B virus | EC50 |  | PDH | 0.0007 µM
O=c1[nH]c(=O)n([C@@H]2O[C@H](CO)[C@@H](O)[C@@H]2O)cc1/C=C/Br | OKA | plaque count | Varicella zoster virus | EC50 |  | HEL | 0.000049 µg/mL
Nc1ncnc2c1ncn2[C@@H]1C[C@@H](O)[C@H](CO)O1 |  |  | Measles virus | EC50 |  | CV-1 | >100 µM
O=C1N(Cc2ccc(CO)cc2)[C@H](Cc2ccccc2)[C@H](O)[C@@H](O)[C@@H](Cc2ccccc2)N1Cc1ccc(CO)cc1 | IIIB | virus yield | HIV-1 | inhibition | 0.14 µM | PBMC | 90%

Repeating the final 4 entries:

Nc1ccn([C@@H]2C[C@@H](O)[C@H](CO)O2)c(=O)n1 ; agent: Duck hepatitis B virus ; measure: EC50 ; cell line: PDH ; result: 0.0007 µM
O=c1[nH]c(=O)n([C@@H]2O[C@H](CO)[C@@H](O)[C@@H]2O)cc1/C=C/Br ; strain: OKA ; method: plaque count ; agent: Varicella zoster virus ; measure: EC50 ; cell line: HEL ; result: 0.000049 µg/mL
Nc1ncnc2c1ncn2[C@@H]1C[C@@H](O)[C@H](CO)O1 ; agent: Measles virus ; measure: EC50 ; cell line: CV-1 ; result: >100 µM
O=C1N(Cc2ccc(CO)cc2)[C@H](Cc2ccccc2)[C@H](O)[C@@H](O)[C@@H](Cc2ccccc2)N1Cc1ccc(CO)cc1 ; strain: IIIB ; method: virus yield ; agent: HIV-1 ; measure: inhibition ; tested at: 0.14 µM ; cell line: PBMC ; result: 90%

A number after MIC or MFC names an inhibition level or a share of isolates. Inhibition is in % at the dose shown (toxicity tests: loss of growth or viability). a–b is a range or a potency band. ECn: concentration that inhibits the pathogen or its effect by n%. Blank or dashed fields: not listed here.